Measured values from several laboratories, pooled; numbers as filed in NIAID ChemDB.

Shared fields: whole-cell or culture tests; organism: Aspergillus clavatus; read by: broth dilution; read-out: MIC

An empty or dashed field is not shown. Conditions beyond the fields shown may differ between rows.

compound,strain or isolate,value
O=C(NN1C(=O)/C(=C/c2cc3ccccc3nc2Cl)N=C1c1ccccc1)c1ccccc1O,MTCC 1323,500 µg/mL
COc1ccc(C=NNC(=O)c2cnc3c(ccc4[nH]c(Cl)cc(C)c43)c2=O)cc1,,500 µg/mL
Cc1ccc(N2NOC(=O)C2S(=O)(=O)Nc2ccc(-n3c(-c4cccc(Br)c4)nc4ccccc4c3=O)cc2)cc1,MTCC323,500 µg/mL
COc1ccc(Nc2nc3c(sc(=S)n3-c3ccccc3)c(=O)n2-c2ccc(OC)cc2)cc1,MTCC 1323,16 µg/mL
Cc1cc(Cl)[nH]c2ccc3c(=O)c(C(=O)NN=Cc4cc([N+](=O)[O-])ccc4O)cnc3c12,,1000 µg/mL
COc1ccc(NC(=O)CSc2nnc(-c3ccc(N=Cc4cccs4)cc3)o2)cc1,MTCC 1323,1000 µg/mL
Cc1ccc(-c2csc(NS(=O)(=O)C3C(=O)ONN3c3ccc(C)cc3)n2)cc1,MTCC323,1000 µg/mL
COc1cccc(NC(=O)CSc2nnc(-c3ccc(N=Cc4cccs4)cc3)o2)c1,MTCC 1323,500 µg/mL
Cc1ccc(N2NOC(=O)C2S(=O)(=O)Nc2ccc(-n3c(-c4ccccc4Cl)nc4ccccc4c3=O)cc2)cc1,MTCC323,1000 µg/mL
O=C(Cc1ccccc1)NN1C(=O)/C(=C/c2cc3ccccc3nc2Cl)N=C1c1ccccc1,MTCC 1323,500 µg/mL
Cc1cc(Cl)[nH]c2ccc3c(=O)c(C(=O)NN4C(=O)C(Cl)C4c4ccccc4O)cnc3c12,,1000 µg/mL
O=C(CSc1nnc(-c2ccc(N=Cc3cccs3)cc2)o1)Nc1ccccc1Cl,MTCC 1323,500 µg/mL
O=C(NN1C(=O)/C(=C/c2cc3ccccc3nc2Cl)N=C1c1ccccc1)c1cc(Cl)ccc1Cl,MTCC 1323,500 µg/mL
Cc1cc(Cl)[nH]c2ccc3c(=O)c(C(=O)NN=Cc4ccccc4O)cnc3c12,,500 µg/mL
Cc1ccc(NC(=O)CSc2nnc(-c3ccc(N=Cc4cccs4)cc3)o2)c(C)c1,MTCC 1323,250 µg/mL
Cc1cc(Cl)[nH]c2ccc3c(=O)c(C(=O)NN4C(=O)C(Cl)C4c4cccc([N+](=O)[O-])c4O)cnc3c12,,>1000 µg/mL
Cc1ccc(N2NOC(=O)C2S(=O)(=O)Nc2ccc(-n3c(-c4ccccc4[N+](=O)[O-])nc4ccccc4c3=O)cc2)cc1,MTCC323,1000 µg/mL
CC1=C(Cl)C(O)=CC(=O)C12Oc1cc(O)c(Cl)c(C)c1C2=O,MTCC 1323,100 µg/mL
COc1ccccc1C=NNC(=O)c1cnc2c(ccc3[nH]c(Cl)cc(C)c32)c1=O,,1000 µg/mL